Measured values published in patent US8603769B2, “Method for direct and rapid identification of microorganisms and antimicrobial susceptibility testing from positive blood cultures” (Becton, Dickinson and Company, priority 2011, dated 2013).

How the values were obtained:
[1] = test system: Staphylococcus and Enterococcus test strains; experiment: AST testing on BD Phoenix ID/AST panel: MIC of Test Method (pellet from PBC) vs Control (plated pure culture), essential agreement; format: cell-based; settings: 12 strains
Streptococcus strains = experiment: AST testing on BD Phoenix ID/AST panel: MIC of Test Method vs Control, essential agreement; format: cell-based
[2] = samples prepared with lysis buffer #1
[3] = samples prepared with lysis buffer #2
[4] = samples prepared with lysis buffer #1, 7 strains
[5] = samples prepared with lysis buffer #2, 8 strains

Molecule | EA (strains with MIC dilution difference -1 to +1 vs Control) [1, 2] | EA (strains with MIC dilution difference -1 to +1 vs Control) [1, 3] | % EA [1, 2] | % EA [1, 3] | % EA (Streptococcus strains; [4]) | EA (strains with MIC dilution difference -1 to +1 vs Control) (Streptococcus strains; [4]) | % EA (Streptococcus strains; [5]) | EA (strains with MIC dilution difference -1 to +1 vs Control) (Streptococcus strains; [5])
High-level Gentamicin [GMS] | 12 | 12 | – | – | – | – | – | –
Penicillin | 12 | 11 | 100.0% | 91.7% | 71.4% | 5 | 75.0% | 6
CCCCCCCCCC(=O)N[C@@H](Cc1c[nH]c2ccccc12)C(=O)N[C@H](CC(N)=O)C(=O)N[C@@H](CC(=O)O)C(=O)N[C@@H]1C(=O)NCC(=O)N[C@@H](CCCN)C(=O)N[C@@H](CC(=O)O)C(=O)N[C@H](C)C(=O)N[C@@H](CC(=O)O)C(=O)NCC(=O)N[C@H](CO)C(=O)N[C@@H]([C@H](C)CC(=O)O)C(=O)N[C@@H](CC(=O)c2ccccc2N)C(=O)O[C@@H]1C [DAP, Daptomycin] | 12 | 12 | 100.0% | 100.0% | – | – | – | –
CO[C@H]1/C=C/O[C@@]2(C)Oc3c(C)c(O)c4c(O)c(c(/C=N/N5CCN(C)CC5)c(O)c4c3C2=O)NC(=O)/C(C)=C\C=C\[C@H](C)[C@H](O)[C@@H](C)[C@@H](O)[C@@H](C)[C@H](OC(C)=O)[C@@H]1C [RA, Rifampin] | 12 | 12 | 100.0% | 100.0% | – | – | – | –
CN[C@H](CC(C)C)C(=O)N[C@H]1C(=O)N[C@@H](CC(N)=O)C(=O)N[C@H]2C(=O)N[C@H]3C(=O)N[C@H](C(=O)N[C@H](C(=O)O)c4cc(O)cc(O)c4-c4cc3ccc4O)[C@H](O)c3ccc(c(Cl)c3)Oc3cc2cc(c3O[C@@H]2O[C@H](CO)[C@@H](O)[C@H](O)[C@H]2O[C@H]2C[C@](C)(N)[C@H](O)[C@H](C)O2)Oc2ccc(cc2Cl)[C@H]1O [VA, Vancomycin] | 9 | 9 | 75.0% | 75.0% | 100.0% | 7 | 100.0% | 8
Bactrim [SXT] | 12 | 11 | 100.0% | 91.7% | 100.0% | 7 | 100.0% | 8
Gentamicin [GM] | 11 | 11 | 91.7% | 91.7% | – | – | – | –
CC[C@H]1OC(=O)[C@H](C)C(=O)[C@H](C)[C@@H](O[C@@H]2O[C@H](C)C[C@H](N(C)C)[C@H]2O)[C@](C)(OC)C[C@@H](C)C(=O)[C@H](C)[C@H]2N(CCCCn3cnc(-c4cccnc4)c3)C(=O)O[C@]12C [TEL, Telithromycin] | – | – | – | – | 100.0% | 7 | 100.0% | 8
O=C(N[C@H](CO)[C@H](O)c1ccc([N+](=O)[O-])cc1)C(Cl)Cl [C, Chloramphenicol] | – | – | – | – | 100.0% | 7 | 100.0% | 8
Teicoplanin [TEC] | – | – | – | – | 100.0% | 7 | 100.0% | 8
CO/N=C(\C(=O)N[C@@H]1C(=O)N2C(C(=O)O)=C(COC(C)=O)CS[C@H]12)c1csc(N)n1 [CTX, Cefotaxime] | – | – | – | – | 100.0% | 7 | 100.0% | 8
CN[C@@H]1[C@H](O[C@H]2[C@H](O[C@H]3[C@H](O)[C@@H](O)[C@H](N=C(N)N)[C@@H](O)[C@@H]3N=C(N)N)O[C@@H](C)[C@]2(O)C=O)O[C@@H](CO)[C@H](O)[C@H]1O [STS, High-level streptomycin] | 12 | 12 | 100.0% | 100.0% | – | – | – | –
CC(=O)NC[C@H]1CN(c2ccc(N3CCOCC3)c(F)c2)C(=O)O1 [LZD, Linezolid] | 12 | 12 | 100.0% | 100.0% | 100.0% | 7 | 100.0% | 8
C[C@@H](O)[C@H]1C(=O)N2C(C(=O)O)=C(S[C@@H]3CN[C@H](C(=O)N(C)C)C3)[C@H](C)[C@H]12 [MEM, Meropenem] | – | – | – | – | 100.0% | 7 | 100.0% | 8
CO/N=C(\C(=O)N[C@@H]1C(=O)N2C(C(=O)[O-])=C(C[N+]3(C)CCCC3)CS[C@H]12)c1csc(N)n1 [FEP, Cefepime] | – | – | – | – | 100.0% | 7 | 100.0% | 8
Cc1onc(-c2ccccc2)c1C(=O)N[C@@H]1C(=O)N2[C@@H]1SC(C)(C)[C@@H]2C(=O)O [OX, Oxacillin] | 10 | 10 | 83.3% | 83.3% | – | – | – | –
CC1(C)S[C@@H]2[C@H](NC(=O)[C@H](N)c3ccc(O)cc3)C(=O)N2[C@H]1C(=O)O [AMX, Amoxicillin] | – | – | – | – | 100.0% | 7 | 100.0% | 8
CC[C@H]1OC(=O)[C@H](C)[C@@H](O[C@H]2C[C@@](C)(OC)[C@@H](O)[C@H](C)O2)[C@H](C)[C@@H](O[C@@H]2O[C@H](C)C[C@H](N(C)C)[C@H]2O)[C@](C)(O)C[C@@H](C)C(=O)[C@H](C)[C@@H](O)[C@]1(C)O [E, Erythromycin] | 9 | 10 | 75.0% | 83.3% | 100.0% | 7 | 100.0% | 8
CC1(C)S[C@@H]2[C@H](NC(=O)[C@H](N)c3ccccc3)C(=O)N2[C@H]1C(=O)O [AM, Ampicilin] | 11 | 10 | 91.7% | 83.3% | – | – | – | –
CO[C@@]1(NC(=O)Cc2cccs2)C(=O)N2C(C(=O)O)=C(COC(N)=O)CS[C@@H]21 [FOX, Cefoxitin] | 12 | 12 | 100.0% | 100.0% | – | – | – | –
Synercid | 12 | 11 | 100.0% | 91.7% | 100.0% | 7 | 100.0% | 8
